Source: paper PMC4113996, “Prediction and characterization of enzymatic activities guided by sequence similarity and genome neighborhood networks” (eLife, 2014)

Test system: O=C(O)[C@@H]1C[C@@H](O)CN1
Assay: purified protein
Conditions: pH 8.0; 25.0 °C

## Oant_0439 (A6WW16) (Brucella anthropi ATCC 49188)
  Km: 1300 ± 200 µM
